Anti-infective test results gathered from many reports (values: NIAID ChemDB through PubChem).

Shared fields: whole-cell or culture tests; species: Mycobacterium avium; endpoint: MIC

An empty or dashed field is not shown. Neighbouring rows are from separate reports. a–b is a range or a potency band.

compound,strain or isolate,method,conditions,value
NC(=O)c1ncc(C(N)=S)nc1N1CCOCC1,80/72,-,-,>100 µg/mL
O=C(c1ccncc1)N(NCc1cccc(Cl)c1)C(=O)c1cnccn1,ATCC49601,-,-,>16 µg/mL
O=C1C(=S)N(Cc2ccccc2)c2ccccc21,CNCTC MY66/72,-,-,63 µM
CCOc1ccccc1NC(=O)OCC[NH+]1CCCC1,MY330/88,-,-,>1000 µM
Oc1ccc(Cl)cc1C(=S)Nc1ccc(Cl)c(Cl)c1,MY330/88,-,-,31 µM
O=C(NNC1=NS(=O)(=O)c2ccccc2N1c1ccccc1)c1ccncc1,ATCC49601,-,-,>16 µg/mL
CCOC(=O)C(=O)N=Nc1c(S)n(CC)c2ccccc12,CNCTC MY66/72,-,-,>1000 µM
Cc1cccc(Nc2nc(C(N)=S)cnc2C(N)=O)c1,80/72,-,-,>100 µg/mL
COC(=O)C1[C@@H](OC(=O)CC(CCCCCCCCCCC(C)C)OC(=O)CC(C)CC(=O)OC2OC(C)C(OC)C(OC)C2OC)CN(C)C([C@@H](OC2O[C@H](CN)[C@@H](O)[C@H]2O)C2OC(n3ccc(=O)[nH]c3=O)[C@H](O)[C@@H]2O)C(=O)N1C,3 strains,-,-,0.05–0.39 µg/mL
NC(=S)c1cc(SCc2ccc(F)c(F)c2)ccn1,CNCTC MY330/88,-,-,7.94 µM
O=C(Nc1ncn[nH]1)c1cc(F)ccc1O,MY330/88,-,-,250 µM
O=C(NNC1=NS(=O)(=O)c2ccccc2N1c1ccccc1)c1cccnc1,ATCC49601,-,-,>16 µg/mL
COc1ccc2c(N/N=C/c3ccc4c(c3)OCO4)cc(C)nc2c1,ATCC 25291,-,-,3.13 µg/mL
Cc1ccc(CSc2nnn(-c3ccccc3)n2)cc1,CNCTC MY330/88,-,-,62.5 µM
Clc1ccc(C(Cn2ccnc2)NCc2cccc3ccccc23)cc1,CIP103317,-,-,8 µg/mL
Oc1ccc(Cl)cc1C(=S)Nc1cccc(F)c1,MY330/88,-,-,31 µM
C/C=C(/C)C(=O)OC/C=C\C#CC#C/C=C/C(=O)OC,-,-,-,50 µg/mL
c1ccc(CSc2nnn(-c3ccccc3)n2)cc1,CNCTC MY330/88,-,-,125 µM
CCS/C(N)=N/N=C/c1ccc2ccccc2n1.CCS/C(N)=N/N=C/c1ccc2ccccc2n1,CNCTC D5/93,-,-,63 µM
N#Cc1cnc(C(N)=O)c(Nc2ccc(O)cc2)n1,80/72,-,-,>100 µg/mL
COc1ccc(C(=O)Nc2ncn[nH]2)c(O)c1,MY330/88,-,-,1000 µM
CCS/C(N)=N/N=C/c1ccccc1O,CNCTC D5/93,-,-,125 µM
N#Cc1cc(SCc2cc([N+](=O)[O-])cc([N+](=O)[O-])c2)ccn1,CNCTC MY330/88,-,-,30.9 µM
NC(=O)c1ncc(C(N)=S)nc1NC1CCCCCC1,80/72,-,-,>100 µg/mL
Clc1ccc(C(Cn2ccnc2)NCc2ccc(-c3ccccc3)cc2)c(Cl)c1,CIP103317,-,-,8 µg/mL
N/C(=N\N=C\c1ccccc1)SCc1ccc(C(F)(F)F)cc1,ATCC 25291,broth dilution,14 d,16 µM
N#Cc1cnc(C(N)=O)c(Nc2cccc(O)c2)n1,80/72,-,-,>100 µg/mL
Cc1ccc(C(=O)Nc2nc(C)cc(C)n2)c(O)c1,MY330/88,-,-,1000 µM
CC(=O)Nc1ccc(/C=N/NC(N)=S)cc1,3350,-,-,0.02 µg/mL
CCCOc1cccc(NC(=O)OCCN2CCOCC2)c1,MY330/88,-,-,500 µM
CC(=O)Oc1c(Cl)cccc1C(=O)Nc1ccc(Cl)c(Cl)c1,MY330/88,-,-,8 µg/mL
COc1ccc(CSc2nnn(-c3ccc(C)cc3)n2)cc1,CNCTC MY330/88,-,-,62.5 µM
O=C(NC1CCCCC1)N(C(=O)c1cnccn1)C1CCCCC1,330/88,-,21 d,>500 µM
NC(=O)c1ncc(C(N)=S)nc1N1CCCCC1,80/72,-,-,>100 µg/mL
O=C(Nn1cncn1)c1ccc(Cl)cc1O,MY330/88,-,-,1000 µM
Cc1ccn2c(C(=O)NCc3ccc(N4CCN(c5ccc(C(F)(F)F)cc5)CC4)c(F)c3)c(C)nc2c1,A5,resazurin,-,>1 µg/mL
O=C(c1ccncc1)N(/N=C/c1cccc(Cl)c1)C(=O)c1cnccn1,ATCC49601,-,-,>16 µg/mL
N#Cc1cc(SCc2ccc(F)c(F)c2)ccn1,CNCTC MY330/88,-,-,15.85 µM
CC(=O)Oc1cc(Cl)ccc1C(=O)Nc1cccc(Cl)c1,MY330/88,-,-,16 µg/mL
Cc1cn2c(C(=O)NCc3ccc(Oc4ccc(C(F)(F)F)cc4)cc3)c(C)nc2s1,101,resazurin,-,<2 µM
CCCCOc1ccc2nccc(NN)c2c1,ATCC 25291,-,-,25 µg/mL
Cc1ccc(-n2nnc(SCc3ccccc3)n2)cc1,CNCTC MY330/88,-,-,62.5 µM
CC(=O)NC[C@H]1CN(c2ccc(N3CCSCC3)c(F)c2)C(=O)O1,LPR,-,-,4 µg/mL
CC(C)N=C(N)/N=C(\N)NOCCCOc1cc(Cl)c(Cl)cc1Cl,Farino,-,-,<0.1 µg/mL
CN1C(NC(=O)c2cnccn2)=NS(=O)(=O)c2cc(Cl)ccc21,ATCC49601,-,-,>16 µg/mL
CCS/C(N)=N/N=C/c1nc2ccccc2n1C,CNCTC MY66/72,-,-,32 µM
c1ccc(-c2ccc(CNC(Cn3ccnc3)c3ccccc3)cc2)cc1,CIP103317,-,-,8 µg/mL
CCn1c(S)c(N=NC(N)=[NH2+])c2ccccc21,CNCTC MY80/72,-,-,250 µM
O=C(c1ccncc1)N(/N=C/c1ccco1)C(=O)c1cnccn1,ATCC49601,-,-,>16 µg/mL
N/C(=N\N=C\c1ccccc1)SCc1ccccc1,ATCC 25291,broth dilution,21 d,62.5 µM
Fc1ccc(C(Cn2ccnc2)NCc2ccc(-c3ccccc3)cc2)cc1,CIP103317,-,-,8 µg/mL
CCN1C(NNC(=O)c2cnccn2)=NS(=O)(=O)c2ccccc21,ATCC49601,-,-,>16 µg/mL
C(=C\c1ccccc1)/CNC(Cn1ccnc1)c1ccccc1,CIP103317,-,-,>16 µg/mL
CCCCCCCCCOc1cccc(NC(=O)OCC[NH+]2CCCC2)c1,MY330/88,-,-,32 µM
CSC(SSC(S)C(N)=O)C(N)=O,225,-,-,120 µM
NC(=O)c1ncc(C(N)=S)nc1Nc1ccccc1,80/72,-,-,100 µg/mL
Clc1ccc(C(Cn2ccnc2)NCc2cccc3ccccc23)c(Cl)c1,CIP103317,-,-,8 µg/mL
CCCCCCCCCOc1cccc(NC(=O)OCCN2CCOCC2)c1,MY330/88,-,-,62.5 µM
Cc1ccn2c(C(=O)NCc3ccc(N4CCN(c5ccc(C(F)(F)F)cn5)CC4)c(F)c3)c(C)nc2c1,A5,resazurin,-,>1 µg/mL
NC(=S)c1cc(SCc2ccc([N+](=O)[O-])cc2)ccn1,CNCTC MY330/88,-,-,3.98 µM
Clc1ccc(-n2nnc(SCc3ccccc3)n2)cc1Cl,CNCTC MY330/88,-,-,62.5 µM
C/C=C\C#CC#C/C=C/C(=O)OC,-,-,-,50 µg/mL
Cc1ccn2c(C(=O)NCc3ccc(N(C)C)cc3)c(C)nc2c1,2151,resazurin,-,2–10 µM
O=C(Oc1cc(Cl)ccc1C(=O)Nc1ccc(Cl)cc1)c1cnccn1,330/88,-,14 d,2 µM
NC(=S)c1cc(SCc2cccc(Cl)c2)ccn1,CNCTC MY330/88,-,-,7.94 µM
NNC(=O)c1ccncc1,330/88,-,21 d,>250 µM
N#Cc1cnc(C(N)=O)c(Nc2cccc(Br)c2)n1,80/72,-,-,>100 µg/mL
COc1ccc(/C=N/N(C(=O)c2ccncc2)C(=O)c2cnccn2)c(O)c1,ATCC49601,-,-,>16 µg/mL
CCC(O)C#CC#C/C=C\C(=O)OC,-,-,-,25 µg/mL
CS/C(N)=N/N=C/c1ccc2ccccc2n1,CNCTC MY66/72,-,-,125 µM
O=C(Nc1cnccn1)c1cc(Br)ccc1O,MY330/88,-,-,250 µM
Cc1ccn2c(C(=O)NCc3ccc(N4CCSCC4)c(F)c3)c(C)nc2c1,101,resazurin,-,<2 µM
CCC(C)c1ccc(NC(=S)c2cc(Cl)ccc2O)cc1,MY330/88,-,-,31 µM
CCCCS/C(N)=N/N=C/c1ccc2ccccc2n1,CNCTC D5/93,-,-,32 µM
CCCCCN1C(=S)C(=O)c2ccccc21,CNCTC MY66/72,-,-,32 µM
O=C(Oc1ccc(Cl)cc1C(=O)Nc1ccc(F)cc1)c1cnccn1,330/88,-,21 d,16 µM
CCS/C(N)=N\N=C\c1ccc(C(F)(F)F)cc1,ATCC 19421,-,-,0.78 µg/mL
CC(=O)Oc1c(Cl)cccc1C(=O)Nc1ccc(Cl)cc1,MY330/88,-,-,8 µg/mL
COc1ccc(NC(=S)c2cc(Cl)ccc2O)cc1,MY330/88,-,-,16 µM
Cc1ccc(CS/C(N)=N/N=C/c2ccccc2)cc1,ATCC 25291,broth dilution,14 d,16 µM
COC(=O)/C=C/C(=O)c1ccc(C(C)(C)C)cc1,-,-,-,16 µg/mL
COc1ccc(-n2nnc(SCc3ccc(C)cc3)n2)cc1,CNCTC MY330/88,-,-,125 µM
CCN1C(NNC(=O)c2cccnc2)=NS(=O)(=O)c2ccccc21,ATCC49601,-,-,>16 µg/mL
CCCC(C)S/C(N)=N/N=C/c1ccc2ccccc2n1,CNCTC MY80/72,-,-,63 µM
N#Cc1cc(SCc2ccc([N+](=O)[O-])cc2[N+](=O)[O-])ccn1,CNCTC MY330/88,-,-,30.9 µM

Repeating the first 10 entries:

compound	strain or isolate	method	conditions	value
NC(=O)c1ncc(C(N)=S)nc1N1CCOCC1	80/72	-	-	>100 µg/mL
O=C(c1ccncc1)N(NCc1cccc(Cl)c1)C(=O)c1cnccn1	ATCC49601	-	-	>16 µg/mL
O=C1C(=S)N(Cc2ccccc2)c2ccccc21	CNCTC MY66/72	-	-	63 µM
CCOc1ccccc1NC(=O)OCC[NH+]1CCCC1	MY330/88	-	-	>1000 µM
Oc1ccc(Cl)cc1C(=S)Nc1ccc(Cl)c(Cl)c1	MY330/88	-	-	31 µM
O=C(NNC1=NS(=O)(=O)c2ccccc2N1c1ccccc1)c1ccncc1	ATCC49601	-	-	>16 µg/mL
CCOC(=O)C(=O)N=Nc1c(S)n(CC)c2ccccc12	CNCTC MY66/72	-	-	>1000 µM
Cc1cccc(Nc2nc(C(N)=S)cnc2C(N)=O)c1	80/72	-	-	>100 µg/mL
COC(=O)C1[C@@H](OC(=O)CC(CCCCCCCCCCC(C)C)OC(=O)CC(C)CC(=O)OC2OC(C)C(OC)C(OC)C2OC)CN(C)C([C@@H](OC2O[C@H](CN)[C@@H](O)[C@H]2O)C2OC(n3ccc(=O)[nH]c3=O)[C@H](O)[C@@H]2O)C(=O)N1C	3 strains	-	-	0.05–0.39 µg/mL
NC(=S)c1cc(SCc2ccc(F)c(F)c2)ccn1	CNCTC MY330/88	-	-	7.94 µM